Reference: PubChem BioAssay AID449728 (The Scripps Research Institute Molecular Screening Center, 2010)
This is a selection; strong and weak results do not stand in their true shares. Calls of active or inactive are those of the source.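 Rule for the calls: active = inhibition above the campaign's mean inhibition across all tested compounds plus 3 SD (cut at about 9.9% in these data); inactive = the rest.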

Assay: E. coli V3065 growth inhibition, primary screen, counter-screen for AddAB inhibitor project, absorbance, OD600 (AID 449728);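 note: uninfected addAB+ strain grown without phage in ampicillin broth; 0% = DMSO wells and 100% = ciprofloxacin 0.95 µg/ml wells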
Conditions: 18 h, at 11.9 µM, active compounds read high
For `O=[N+]([O-])c1ccc(O)c(/C=N/Nc2ccc([N+](=O)[O-])cc2[N+](=O)[O-])c1`, the inhibition was inactive: -1.38%. With `C[C@H]1OP(=O)(Oc2ccccc2)[C@H](O)[C@H](O)[C@H]1N=[N+]=[N-]` (stereo not given in full) the inhibition was inactive: 0.85%. For `O=P(Nc1nc2ccccc2s1)(c1ccccc1)c1ccccc1`, the inhibition was inactive: -1.7%. With `CN(C)C1(CNC(=O)c2ccc(Cl)c(S(N)(=O)=O)c2)CCCCC1` the inhibition was inactive: -0.18%. With `O=P(Nc1ccccn1)(c1ccc(Br)cc1)c1ccc(Br)cc1` the inhibition was inactive: 1.19%. For `c1nnnn1CCn1cnnn1`, the inhibition was inactive: 2.53%. In the case of `O=P(Nc1nccs1)(c1ccccc1)c1ccccc1`, the inhibition is reported as inactive: 0.17%. In the case of `CC(C)C(=O)NC(Sc1ccccc1)C(Cl)(Cl)Cl` (stereo not given), the inhibition is reported as inactive: -1.3%. With `CC1CCN(C(=O)Oc2c(Cl)cc(Cl)c3cccnc23)CC1` the inhibition was inactive: -0.08%. In the case of `CN(C)C(=O)OCCc1n(C)cc[n+]1C`, the inhibition is reported as inactive: 0.7%. With `CC(C)=N/N=C(\N)N[N+](=O)[O-]` the inhibition was inactive: 0.55%. In the case of `CCN(/C(=N/P(=O)(N1CCOCC1)N1CCOCC1)N1CCOCC1)c1ccc(OC)cc1`, the inhibition is reported as inactive: 1.81%. For `C[N+]1=C2C=CC=CC=C2SC12C([N+](=O)[O-])=CC([N+](=O)[O-])=C[C-]2[N+](=O)[O-]` (stereo not given), the inhibition was inactive: -2.49%. For `Nc1ccc([As](=O)(O)c2ccc(N)cc2)cc1`, the inhibition was inactive: 0.59%. With `O=[N+]([O-])c1cc([N+](=O)[O-])c(CCNc2ccccc2)c([N+](=O)[O-])c1` the inhibition was inactive: 0.42%. In the case of `CCc1nc2c(n1)c1c(non1O)c1c2no[n+]1[O-]`, the inhibition is reported as inactive: 2.41%. With `Cc1ccc(NP(=O)(Oc2ccccc2)Oc2ccccc2)nc1` the inhibition was inactive: 2.03%. For `CC(=O)N1C2C3N(C(C)=O)C1C1N(C(C)=O)C(C(N1C(C)=O)N3C(C)=O)N2C(C)=O`, the inhibition was inactive: -1.52%. For `O=[N+]([O-])c1cccc2n[nH]nc12`, the inhibition was active: 56.5%. In the case of `COc1ccc(C2=NCC(CBr)S2)cc1` (stereo not given), the inhibition is reported as inactive: 2.12%. In the case of `O=[N+]([O-])c1cccc(NC2=NCC(CBr)S2)c1` (stereo not given), the inhibition is reported as inactive: -0.49%. With `O=[N+]([O-])c1ncn(CCn2ncnc2[N+](=O)[O-])n1` the inhibition was inactive: 0.17%. With `CC(C)(C)C(=O)NC(Sc1ccncn1)C(Cl)(Cl)Cl` (stereo not given) the inhibition was inactive: 3.78%. In the case of `O=C(Nc1cc([As](=O)(O)O)ccc1O)c1ccccc1`, the inhibition is reported as inactive: 0.36%. With `CCN(N=Nc1nonc1N)c1nonc1N` the inhibition was inactive: 2.6%. With `O=[N+]([O-])c1cc([N+](=O)[O-])c(CCN2CCOCC2)c([N+](=O)[O-])c1` the inhibition was inactive: -2.53%. With `CN(C(=O)Cc1ccc(Cl)c(Cl)c1)[C@H]1CCCC[C@@H]1N1CCCC1` the inhibition was inactive: -0.52%. With `Cc1ccc(NP(=O)(Oc2ccccc2F)Oc2ccccc2F)nc1` the inhibition was inactive: -1%. In the case of `Cc1cc(SC(NC(=O)c2ccc(F)cc2)C(Cl)(Cl)Cl)ncn1` (stereo not given), the inhibition is reported as inactive: 0.85%. With `CCOP(=O)(Nc1ccccc1)OCC` the inhibition was inactive: 0.33%. In the case of `O=P(Nc1nc2ccc(Cl)cc2s1)(c1ccccc1)c1ccccc1`, the inhibition is reported as inactive: -3.13%. In the case of `CC(=O)Nc1ccc([As](=O)(O)O)cc1`, the inhibition is reported as inactive: 0.36%. With `O=C(O)c1ccccc1[As](=O)(O)O` the inhibition was inactive: 0%. In the case of `O=C(NC(Sc1ccncn1)C(Cl)(Cl)Cl)c1ccccc1` (stereo not given), the inhibition is reported as inactive: 0.95%. For `Cc1c2non([O-])c-2c(C)[n+](=O)[n+]1[O-]`, the inhibition was active: 9.88%. For `Oc1ccccc1CNc1ccccn1`, the inhibition was inactive: -0.26%. For `Nc1cc(N)c2nonc2c1[N+](=O)[O-]`, the inhibition was inactive: 0.32%. For `CC(C)CC(=O)NC(Sc1ccc(Cl)cc1)C(Cl)(Cl)Cl` (stereo not given), the inhibition was inactive: 3.21%. For `CN1CCCC(OC(=O)C(c2ccccc2)c2ccccc2)C1` (stereo not given), the inhibition was inactive: -2.78%. In the case of `Clc1ccc(Cl)c(NC2=NCC(CBr)S2)c1` (stereo not given), the inhibition is reported as inactive: -1.1%. In the case of `Cc1ccc(OP(=O)(Nc2nccs2)Oc2ccc(C)cc2)cc1`, the inhibition is reported as inactive: -4.23%. For `COc1ccccc1OP(=O)(Nc1ccc(C)cn1)Oc1ccccc1OC`, the inhibition was inactive: 1.85%. In the case of `Cc1ccc(N/C(=N/P(=O)(N2CCOCC2)N2CCOCC2)N2CCOCC2)cc1`, the inhibition is reported as inactive: -0.08%. In the case of `CN(C(=O)Cc1ccc(Cl)c(Cl)c1)[C@H]1CCCC[C@H]1N1CCCC1`, the inhibition is reported as inactive: -1.72%. In the case of `NC(=O)c1cc([N+](=O)[O-])cc([N+](=O)[O-])c1N`, the inhibition is reported as inactive: 1.69%.
